According to PubChem BioAssay AID602123 (The Scripps Research Institute Molecular Screening Center, 2011):
Only a part is listed here, and it is no random draw. Some salts or complexes appear as unconnected parts, following the source record. Active and inactive are the calls of the source. No stated cut-off is given here; in the data, active means inhibition above about 13% (passing the limit was not always enough); inactive means the rest.

By UniProt entry, the sequences of proteins in these tests, tags left out.
UniProt P0A9M0, whole entry: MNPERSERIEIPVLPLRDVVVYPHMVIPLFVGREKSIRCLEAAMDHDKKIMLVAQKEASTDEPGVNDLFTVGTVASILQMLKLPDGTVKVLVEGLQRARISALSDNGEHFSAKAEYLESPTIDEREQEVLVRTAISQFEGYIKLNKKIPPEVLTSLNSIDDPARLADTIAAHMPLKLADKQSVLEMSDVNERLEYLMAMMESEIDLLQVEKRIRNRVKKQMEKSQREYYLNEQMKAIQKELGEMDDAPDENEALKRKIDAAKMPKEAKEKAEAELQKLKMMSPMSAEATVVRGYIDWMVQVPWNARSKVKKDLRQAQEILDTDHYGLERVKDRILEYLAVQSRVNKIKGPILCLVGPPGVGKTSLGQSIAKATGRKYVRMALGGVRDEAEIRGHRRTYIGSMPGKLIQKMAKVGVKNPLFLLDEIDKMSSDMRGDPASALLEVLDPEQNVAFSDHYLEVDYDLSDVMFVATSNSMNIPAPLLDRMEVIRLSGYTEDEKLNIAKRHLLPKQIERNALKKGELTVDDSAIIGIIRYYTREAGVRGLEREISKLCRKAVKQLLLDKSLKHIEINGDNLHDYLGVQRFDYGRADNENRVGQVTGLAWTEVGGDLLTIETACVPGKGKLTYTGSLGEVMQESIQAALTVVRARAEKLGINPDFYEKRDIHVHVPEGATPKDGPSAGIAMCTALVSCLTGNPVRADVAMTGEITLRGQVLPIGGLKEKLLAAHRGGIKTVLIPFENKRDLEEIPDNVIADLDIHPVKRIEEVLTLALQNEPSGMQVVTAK

These molecules were tested against Lon protease (Escherichia coli (strain K12)) (UniProt P0A9M0) (assay: inhibitors of E. coli Lon protease, primary screen, biochemical, fluorescence polarization (AID 602123;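 further: 0% = enzyme with probe and DMSO and 100% = no enzyme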)). Settings: purified E. coli Lon protease, at 7.94 µM, hits give high values.
With `O=[N+]([O-])c1cc([N+](=O)[O-])c(NCC2CCS(=O)(=O)C2)c([N+](=O)[O-])c1` (stereo not drawn) the inhibition was inactive: -7.96%.
`O=[N+]([O-])c1ccc(OP2(=O)COCCO2)cc1` (stereo not drawn) was tested, and the inhibition was inactive: 2.61%.
With `CCOP(C)(=S)SCC(=O)NC(C)(CC)C(=O)O` (stereo not drawn) the inhibition was inactive: -3.87%.
For `CP(=O)(Nc1ccc(SC(F)(F)F)cc1)Oc1ccc(F)cc1` (stereo not drawn), the inhibition was inactive: 6.81%.
For `O=[N+]([O-])c1cc([N+](=O)[O-])c(C(F)(F)F)c([N+](=O)[O-])c1O`, the inhibition was inactive: -3.41%.
In the case of `Cc1ccccc1NP(C)(=O)Nc1ccccc1C`, the inhibition is reported as inactive: -4.09%.
In the case of `CP(=O)(Nc1ccc2c(c1)OCCO2)Oc1ccccc1` (stereo not drawn), the inhibition is reported as inactive: -8.28%.
With `CC(C)c1ccc(OP(C)(=O)Nc2ccc(SC(F)(F)F)cc2)cc1` (stereo not drawn) the inhibition was inactive: -11.7%.
For `CP(=O)(Nc1ccccc1F)Oc1ccccc1` (stereo not drawn), the inhibition was inactive: 10.9%.
For `O=[N+]([O-])c1cc([N+](=O)[O-])c(Nc2ccc(Cl)cc2)c([N+](=O)[O-])c1`, the inhibition was inactive: 5.68%.
For `COc1ccc2c(c1O)-c1c(O)c(OC)cc3c1[C@H](C2)[N+](C)(C)CC3.O=[N+]([O-])c1cc([N+](=O)[O-])c([O-])c([N+](=O)[O-])c1[O-]`, the inhibition was inactive: 5.16%.
With `O=C(OCCN1CCN(CCOCc2ccccc2)CC1)C(O)(c1ccccc1)c1ccccc1` the inhibition was inactive: -0.87%.
With `O=C(OC1CN2CCC1CC2)c1ccc([N+](=O)[O-])cc1` (stereo not drawn) the inhibition was inactive: -11.8%.
With `COc1ccc(OP(C)(=O)Nc2ccc(SC(F)(F)F)cc2)cc1` (stereo not drawn) the inhibition was inactive: 1.12%.
`CCOC(=O)c1ccc(NP(C)(=O)Oc2ccc(F)cc2)cc1` (stereo not drawn) was tested, and the inhibition was inactive: 0.17%.
`CCN(CC)CCCNc1ccccc1[N+](=O)[O-].O=[N+]([O-])c1cc([N+](=O)[O-])c(O)c([N+](=O)[O-])c1` was tested, and the inhibition was inactive: -4.36%.
`CCCCCOc1ccc(NP(C)(=O)Oc2ccc(Cl)cc2Cl)cc1` (stereo not drawn) was tested, and the inhibition was inactive: -1.66%.
With `O=[N+]([O-])c1cc([N+](=O)[O-])c(OC2CCCCC2O)c([N+](=O)[O-])c1` (stereo not drawn) the inhibition was inactive: -1.32%.
In the case of `CP(=O)(Nc1ccccc1)Oc1ccc(F)cc1` (stereo not drawn), the inhibition is reported as inactive: -12.6%.
For `CCN(CC)CCCOC(=O)C(O)(c1ccccc1)C1CCCCC1` (stereo not drawn), the inhibition was inactive: -6.34%.
With `Cc1c([N+](=O)[O-])cc([N+](=O)[O-])c(Br)c1[N+](=O)[O-]` the inhibition was inactive: -15.3%.
With `COc1ccc(OP(C)(=O)Nc2ccccc2Br)cc1` (stereo not drawn) the inhibition was inactive: -0.6%.
In the case of `COc1ccccc1OP(C)(=O)Nc1ccc(C)c(C)c1` (stereo not drawn), the inhibition is reported as inactive: 0.69%.
With `O=C1C(O)=C([N+](=O)[O-])C(=O)C(O)=C1[N+](=O)[O-]` the inhibition was inactive: 4.36%.
In the case of `Cc1cc(C)cc(OP(C)(=O)Nc2cccc(C(F)(F)F)c2)c1` (stereo not drawn), the inhibition is reported as inactive: -1.4%.
`CP(=O)(OCCOc1ccccc1)OCCOc1ccccc1` was tested, and the inhibition was inactive: -1.04%.
`CCCCCCCCCCCCCCCC1C[N+](C)(C)CCOP(C)(=O)O1` (stereo not drawn) was tested, and the inhibition was inactive: 2.17%.
In the case of `CP(=O)(Nc1ccc(Cl)cc1Cl)Oc1ccccc1` (stereo not drawn), the inhibition is reported as inactive: -3.23%.
For `CN(C)CCOC(=O)C(O)(c1ccccc1)C1CCCC1` (stereo not drawn), the inhibition was inactive: -13%.
For `COc1ccc(OP(C)(=O)Nc2ccccn2)cc1` (stereo not drawn), the inhibition was inactive: 2.49%.
For `COc1ccccc1OP(C)(=O)Nc1ccc(Br)cc1` (stereo not drawn), the inhibition was inactive: -11.4%.
With `CCc1ccc(OP(C)(=O)O)cc1` the inhibition was inactive: -0.45%.
With `CP(=O)(Nc1ccccn1)Oc1ccccc1` (stereo not drawn) the inhibition was inactive: 4.95%.
In the case of `COc1ccccc1OP(C)(=O)Nc1ccc(C)cc1C` (stereo not drawn), the inhibition is reported as inactive: -14.4%.
In the case of `O=[N+]([O-])c1cc([N+](=O)[O-])c(Nc2ccccn2)c([N+](=O)[O-])c1`, the inhibition is reported as inactive: 2.77%.
For `Cc1c(NP(C)(=O)Oc2ccc(C(C)C)cc2)c(=O)n(-c2ccccc2)n1C` (stereo not drawn), the inhibition was inactive: 3.9%.
With `CP(=O)(Oc1ccccc1)N1CCOC1=O` (stereo not drawn) the inhibition was inactive: 12.5%.
`CCc1ccc(OP(C)(=O)Nc2cccnc2)cc1` (stereo not drawn) was tested, and the inhibition was inactive: 5.83%.
With `COc1ccccc1OP(C)(=O)Nc1c(C)n(C)n(-c2ccccc2)c1=O` (stereo not drawn) the inhibition was inactive: 5.16%.
`O=C(OCCCN1CCCC1)C(O)(c1ccccc1)C1CCCCC1` (stereo not drawn) was tested, and the inhibition was inactive: 7.84%.
`CCN(CC)CC(O)COC(=O)C(O)(c1ccccc1)C1CCCCC1` (stereo not drawn) was tested, and the inhibition was inactive: 5.51%.
`COc1ccc(OP(C)(=O)Nc2ccc(Br)cc2)cc1` (stereo not drawn) was tested, and the inhibition was inactive: -8.67%.
`CN(C)C(=O)c1c([N+](=O)[O-])cc([N+](=O)[O-])cc1[N+](=O)[O-]` was tested, and the inhibition was inactive: 5.96%.
For `CP(=O)(Nc1ccc(Cl)cc1)Oc1ccc(F)cc1` (stereo not drawn), the inhibition was inactive: -13.4%.
In the case of `CC(C)(C)c1ccc(OP(C)(=O)O)cc1`, the inhibition is reported as inactive: 8.14%.
`COc1ccccc1OP(C)(=O)Nc1ccccc1Br` (stereo not drawn) was tested, and the inhibition was inactive: -2.27%.
In the case of `CP(=O)(OC12CC3CC(CC(C3)C1)C2)OC12CC3CC(CC(C3)C1)C2`, the inhibition is reported as inactive: 0.44%.
With `CCOC(=O)c1ccc(NP(C)(=O)Oc2ccc(Cl)cc2)cc1` (stereo not drawn) the inhibition was inactive: 1.25%.
